The source of these data is article PMC8779843.

The target in this assay is Recombinant human ACE2 protein (a.a. 18Q-740S) (human) (UniProt Q9BYF1). The experiment in a line: BLI; biotinylated ACE2 loaded at 30 µg/mL on streptavidin pins, Octet K2; BLI buffer PBS, 0.1% tween-20; mRBD or pRBD added at one concentration, 30 μg/mL (285 nM); association 180 s, dissociation 320 s.

pKd: −log10 of the molar value.

Turning to “recombinant receptor-binding domain of protein S SARS-CoV-2 expressed in CHO cells (mRBD) (from UniProt P0DTC2 308-542) (domain or fragment; other documents disagree on this pair)”, the pKd is 7.24.
